The subject of the experiment is C57BL6 mice challenged with H1N1 (A/PR/8/34). Nature of the experiment: H1N1 influenza pneumonia model. The conditions noted are these: mouse, in vivo.

For `c1ccc(-c2ccc(CNCCNCc3ccc(-c4ccccn4)cc3)cc2)nc1` [BC-1215], the lung resistance result is “decreased lung resistance”.
